Pooled drug test results. Numbers come from NIAID ChemDB, via PubChem.

Common to all: whole-cell or culture tests; species: Candida albicans; read-out: MIC

Two numbers with a dash give a range or band. Lines come from different laboratories, so protocols vary.

CCCn1c(-c2ccc(F)cc2)nc2cc(N)ccc21 ; value: 12.5 µg/mL
C=CCn1c(-c2ccc(N=Nc3c(C)[nH]n(CCO)c3=O)cc2)n[nH]c1=S ; strain: ATCC 2091 ; value: 125 µg/mL
COC1CC2CCC(C)C(O)(O2)C(=O)C(=O)N2CCCCC2C(=O)OC(C(C)CC2CCC(O)C(OC)C2)CC(=O)C(C)/C=C(\C)C(O)C(OC)C(=O)C(C)C[C@](C)(N(O)C(=O)NN2CCCCC2)/C=C/C=C/C=C/1C ; strain: WILD TYPE ; value: 0.78 µg/mL
C/C(=N\NC(=O)CSc1n[nH]c(C)n1)c1ccc(O)cc1 ; strain: ATCC 90028 ; value: 200 µg/mL
CCOC(=O)c1sc(SC)cc1-c1ccc(C)cc1 ; strain: SKF ; value: >100 µg/mL
O=C1/C(=C/c2ccccc2)CCc2ccccc21 ; value: 50 µg/mL
CCCn1c(-c2ccc(F)cc2)nc2cc([N+](=O)[O-])ccc21 ; value: 12.5 µg/mL
Nc1ncnc2c1ncn2[C@@H]1O[C@H](C(=O)O)[C@@H](NC(=O)[C@@H](N)Cc2ccc(OCC(=O)O)cc2)[C@H]1O ; strain: FP633 ; value: >100 µg/mL
COc1ccc2c(c1)C(=O)/C(=C/c1ccc3c(c1)CC3)CO2 ; value: 25 µg/mL
CCOc1ccc(NC(=O)OCC(O)CN2CCN(c3cccc(F)c3)CC2)cc1 ; strain: CCM 8186 ; value: 780 µg/mL
CC1(c2ccccc2)CC(/C(=N/OCC(O)CN=[N+]=[N-])c2cc3ccccc3o2)C1 ; strain: ATCC 10231 ; value: 0.625 µg/mL
C/C(=N\NC(=O)CSc1ncn[nH]1)c1ccc(O)cc1 ; strain: ATCC 90028 ; value: 200 µg/mL
COc1ccc(C2C(C#N)=C(N)OC3=C2CSc2ccccc23)cc1 ; value: 100 µg/mL
CCC(C)CC(C)CCCCCCCCC(=O)N[C@H]1C[C@@H](O)[C@H](NCCN)NC(=O)[C@@H]2[C@@H](O)CCN2C(=O)[C@H]([C@H](O)CCN)NC(=O)[C@H]([C@H](O)[C@@H](O)c2ccc(O)cc2)NC(=O)[C@@H]2C[C@@H](O)CN2C(=O)[C@H]([C@@H](C)O)NC1=O ; strain: MY1055 ; value: 0.5 µg/mL
CCCCCCCCC(=O)[C@H]1O[C@H]1C(=O)NCc1ccccc1 ; strain: SC5314 ; value: 12.5 µg/mL
CCC(C)CC(C)CCCCCCCCC(=O)N[C@H]1C[C@@H](O)[C@H](NCCN)NC(=O)[C@@H]2[C@@H](O)CCN2C(=O)[C@H]([C@H](O)CCN)NC(=O)[C@H]([C@H](O)[C@@H](O)c2ccc(O)cc2)NC(=O)[C@@H]2C[C@@H](O)CN2C(=O)[C@H]([C@@H](C)O)NC1=O ; strain: CLY538 ; value: 0.25 µg/mL
CC1ON=C([C@H]2O[C@@H]3OC(C)(C)O[C@@H]3[C@H]2OCc2ccccc2)C1C(=O)O ; value: >50 µg/mL
CCCCC/C=C/CCC(=O)[C@H]1O[C@H]1C(=O)N1COC1 ; strain: SC5314 ; value: 25 µg/mL
CCC(O)/C=C/C=C/C=C/C(=O)OC[C@H]1O[C@@H](O[C@H]2[C@H](OC(=O)/C=C/C=C/CC(O)/C(C)=C/C=C/CCC(C)CC)[C@@H](O)[C@@]3(OCc4cc(O)cc(O)c43)O[C@@H]2CO)[C@H](O)[C@@H](O)[C@H]1O ; strain: ATCC 32354 ; value: 1.6 µg/mL
CC(=O)C1CC([C@H]2O[C@@H]3OC(C)(C)O[C@@H]3[C@H]2OCc2ccccc2)=NO1 ; value: >50 µg/mL
COc1ccc(/C=C2\CSc3ccc(Cl)cc3C2=O)cc1 ; value: 25 µg/mL
C[C@@H](SC1COC(/C=C/C=C/c2ccc(C#N)cc2F)OC1)[C@](O)(Cn1cncn1)c1ccc(F)cc1F ; strain: CAL-0076 ; value: 8 µg/mL
CS(=O)(=O)C[C@@H](N)C(=O)N[C@H]1[C@@H](O)[C@H](n2cnc3c(N)ncnc32)O[C@@H]1C(=O)O ; strain: FP633 ; value: >100 µg/mL
CC(C)c1ccc(NC(=S)c2cc(Cl)ccc2O)cc1 ; strain: ATCC 44859 ; value: >125 µM
CCCCC/C=C\C1=N[C@H]1C(=O)OC ; strain: ATCC 14503 ; value: 8–9 µg/mL
CCc1nc(SCC(=O)N/N=C(\C)c2ccccc2[N+](=O)[O-])n[nH]1 ; strain: ATCC 90028 ; value: 400 µg/mL
Oc1ccc(Cl)cc1C(=S)Nc1cccc(F)c1 ; strain: ATCC 44859 ; value: 62.5 µM
C[C@H](N)C(=O)N[C@@H](C(=O)O)n1cc(F)c(=O)[nH]c1=O ; strain: B-310 ; value: >100 µg/mL
CS(C)=O ; strain: SC5314 ; value: 6.25 µg/mL
Cc1ccc(C(C)C)cc1O ; strain: H37 ; value: 0.16 µg/mL
COc1ccc2c(c1)C(=O)/C(=C/c1ccc3c(c1)OCO3)CS2 ; value: 50 µg/mL
CCCCCCCCCCCCC/C=C\C1=NC1C(=O)OC ; strain: UCD-FR1 ; value: 2 µg/mL
CC1CCC/C(=N\Nc2nc(-c3ccccc3)cs2)CC1 ; value: 0.39 µg/mL
C[C@@H](c1nc(-c2ccc(C#N)cc2)cs1)[C@](O)(Cn1cncn1)c1ccc(F)cc1F ; strain: E81022 ; value: ≤0.006 µg/mL
CC(C)c1cccc(-c2nc3[n+]([nH]2)CCN([C@H](C)[C@](O)(C[n+]2cnc[nH]2)c2ccc(F)cc2F)C3)c1 ; strain: SC5314 ; value: 0.0625 µg/mL
COC(=O)[C@@H]1N=C1/C=C\CCCCCCCCCCCCC(C)(C)C ; strain: UCD-FR1 ; value: >64 µg/mL
C[C@@H](N1CCc2nc(-c3ccco3)sc2C1)[C@](O)(C[n+]1cnc[nH]1)c1ccc(F)cc1F ; strain: Y0109 ; value: 0.25 µg/mL
CSc1cc(-c2ccc(Cl)cc2)c(C(=O)O)s1 ; strain: SKF ; value: >100 µg/mL
C[C@H](N)C(=O)NC(C(=O)O)n1cc(F)c(=O)[nH]c1=O ; strain: BC759 ; value: 6.3 µg/mL
Nc1ccc2c(c1)nc(-c1ccc(F)cc1)n2C1CCCC1 ; value: 25 µg/mL
N/C(=N/N=C1CCCC1)SCc1ccccc1Cl ; value: >200 µg/mL
CCCn1c(-c2ccccc2)nc2cc([N+](=O)[O-])ccc21 ; value: 25 µg/mL
COc1ccc(C[C@H](NC(=O)[C@@H](N)CCCN=C(N)N)C(=O)N[C@H]2[C@@H](O)[C@H](n3cnc4c(N)ncnc43)O[C@@H]2C(=O)O)cc1 ; strain: FP633 ; value: 100 µg/mL
COC1CC2CCC(C)C(O)(O2)C(O)C(O)N2CCCCC2C(=O)OC(C(C)CC2CCC(O)C(OC)C2)CC(=O)C(C)/C=C(\C)C(O)C(OC)C(=O)C(C)CC(C)/C=C/C=C/C=C/1C ; strain: RBP1/RBP1 ; value: >100 µg/mL
COc1ccccc1/C=C1\COc2ccccc2C1=O ; value: 50 µg/mL
COc1ccc(C[C@H](N)C(=O)N[C@H]2[C@@H](O)[C@H](n3cnc4c(=O)[nH]cnc43)O[C@@H]2C(=O)O)cc1 ; strain: FP633 ; value: >100 µg/mL
CC(/C=C/C=C(\C)C(O)C(C)C(=O)O[C@H]1C[C@@H](C)C=C2C=C[C@]3(C)O[C@@H](O)CC(=O)[C@]3(C)[C@H]21)=C\C=C\C(=O)O ; strain: AC3408 ; value: 0.78 µg/mL
CCOC(=O)c1sc2cc(-c3ccc(F)cc3)oc(=O)c2c1N ; strain: SKF ; value: >100 µg/mL
COc1ccc(CC2CC([C@H]3O[C@@H]4OC(C)(C)O[C@@H]4[C@H]3OC)=NO2)cc1 ; value: >50 µg/mL
COc1ccc2c(Cc3ccc(C(C)(C)C)cc3)c3[n+](cc2c1OC)CCc1cc2c(cc1-3)OCO2 ; strain: ATCC38248 ; value: 1.56 µg/mL
C=CCn1c(-c2ccc(N=Nc3c(C)[nH][nH]c3=O)cc2)n[nH]c1=S ; strain: ATCC 2091 ; value: 62.5 µg/mL
CCOC(=O)c1sc(SC)cc1-c1ccc(F)cc1 ; strain: SKF ; value: >100 µg/mL
COc1nc2c(c(-c3ccc(C)cc3)c1C#N)CSc1ccccc1-2 ; value: 50 µg/mL
N/C(=N/N=C1CCCCCCC1)SCc1ccccc1 ; value: >200 µg/mL
NC(=NC1CCCC1)c1ccc(-c2ccc(-c3ccc(C(N)=NC4CCCC4)cc3)o2)cc1 ; strain: Isolate 17 (strain 12-99) ; value: 12.5 µg/mL
CO[C@@H]1[C@H]2OC(C)(C)O[C@H]2O[C@@H]1C1=NOC(CBr)C1 ; value: >50 µg/mL
CCCCOc1ccc(NC(=O)OCC(O)CN2CCN(c3ccc(F)cc3)CC2)cc1 ; strain: CCM 8186 ; value: 780 µg/mL
Cc1[nH][nH]c(=O)c1N=Nc1ccc(-c2n[nH]c(=S)n2-c2ccccc2)cc1 ; strain: ATCC 2091 ; value: 62.5 µg/mL
CCc1nc(SCC(=O)N/N=C(\C)c2ccc([N+](=O)[O-])cc2)n[nH]1 ; strain: ATCC 90028 ; value: 100 µg/mL
COc1ccc(-c2c(C#N)c(OC)nc3c2CSc2ccc(Cl)cc2-3)cc1OC ; value: 50 µg/mL
Oc1ccc(Cl)cc1C(=S)Nc1ccc(Cl)cc1 ; strain: ATCC 44859 ; value: 31.3 µM
c1ccc(-c2csc(NN=C3CCCCCCCC3)n2)cc1 ; value: >100 µg/mL
CCc1nc(SCC(=O)N/N=C(\C)c2ccc(O)cc2)n[nH]1 ; strain: ATCC 90028 ; value: 400 µg/mL
CCOc1nc2c(c(-c3ccc4ccccc4c3)c1C#N)CSc1ccc(Cl)cc1-2 ; value: 50 µg/mL
COc1ccc(NC(=O)OCC(O)CN2CCN(c3cccc(F)c3)CC2)cc1 ; strain: CCM 8186 ; value: 780 µg/mL
OC(Cn1cncn1)(Cn1cncn1)c1ccc(F)cc1F ; strain: IFO 1594 ; value: 3.13 µg/mL
CC1(C)O[C@H]2[C@@H](O1)[C@@H](C1=NOC(CO)C1)O[C@@H]1OC(C)(C)O[C@@H]12 ; value: >50 µg/mL
COc1ccc2c(c1)C(=O)/C(=C/c1ccc3ccccc3c1)CO2 ; value: 12.5 µg/mL
N#CC1=C(N)OC2=C(CSc3ccc(Cl)cc32)C1c1ccc2c(c1)OCO2 ; value: 25 µg/mL
CCOC(=O)c1sc2cc(-c3ccc(Cl)cc3)oc(=O)c2c1N ; strain: SKF ; value: >100 µg/mL
CO/N=C(\c1cc2ccccc2o1)C1CC(C)(c2ccccc2)C1 ; strain: ATCC 10231 ; value: 0.625 µg/mL
C/C(=N\NC(=O)CSc1n[nH]c(C)n1)c1ccccc1Cl ; strain: ATCC 90028 ; value: 200 µg/mL
Nc1[nH]c(=O)ncc1F ; strain: 2715 ; value: 1 µg/mL
CCCCCCCCCC/C=C\C1=N[C@H]1C(=O)OC ; strain: ATCC 14503 ; value: 5–6 µg/mL
COc1ccc2c(c1)C(=O)/C(=C/c1ccccc1OC)CO2 ; value: 6 µg/mL
C/C(=N\NC(=O)CSc1n[nH]c(C)n1)c1ccc(Cl)cc1 ; strain: ATCC 90028 ; value: 200 µg/mL
CCOC(=O)c1sc2cc(-c3ccc(OC)cc3)oc(=O)c2c1N ; strain: SKF ; value: >100 µg/mL
COc1ccc(-c2c(C#N)c(OC)nc3c2CSc2ccc(OC)cc2-3)cc1 ; value: 100 µg/mL
Cc1ccc(/C=C2\CSc3ccccc3C2=O)cc1 ; value: 50 µg/mL

A second listing of 6 rows from above:

N#CC1=C(N)OC2=C(CSc3ccc(Cl)cc32)C1c1ccc2c(c1)OCO2 ; value: 25 µg/mL
CC1(c2ccccc2)CC(/C(=N/OCC(O)CN=[N+]=[N-])c2cc3ccccc3o2)C1 ; strain: ATCC 10231 ; value: 0.625 µg/mL
OC(Cn1cncn1)(Cn1cncn1)c1ccc(F)cc1F ; strain: IFO 1594 ; value: 3.13 µg/mL
CCc1nc(SCC(=O)N/N=C(\C)c2ccc(O)cc2)n[nH]1 ; strain: ATCC 90028 ; value: 400 µg/mL
C=CCn1c(-c2ccc(N=Nc3c(C)[nH]n(CCO)c3=O)cc2)n[nH]c1=S ; strain: ATCC 2091 ; value: 125 µg/mL
Nc1[nH]c(=O)ncc1F ; strain: 2715 ; value: 1 µg/mL